PubChem BioAssay AID1259414, Drosophila RNAi Screening Center | 2018
Screen: 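Fly genes that alter Wolbachia amount inside host cells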 (primary screen). System: Drosophila JW18 cells infected with Wolbachia. Reagent: long dsRNA against Drosophila genes, 0.25 µg dsRNA per well of a 384-well plate. Time to read-out: 5 days. Challenge: cells persistently infected with Wolbachia before knock-down; no added drug. Measured: 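Automated imaging of bacterial rRNA staining divided by host cell count, reported as plate-normalised robust z-score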. Direction: Wolbachia per cell robust z: higher = more Wolbachia per host cell than the plate typical. Rule for the call: 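Hit when robust z is 1.5 or more, or -1.5 or less, in at least two of three replicates; excludes dsRNAs with several or no targets, genes not expressed in JW18 and well A1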.
The deposit covers about 24,000 reagents; below is a random part of those that have a named target and a result. Of all reagents, about 1,210 (5%) are marked active. 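Inactive calls also include excluded dsRNAs with several or no targets, genes unexpressed in JW18, and well A1, regardless of score.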 Reagents against one gene are numbered here. A plus sign joins genes that one reagent is predicted to hit.

| Gene | reagent no. | Wolbachia per cell robust z, rep 1 | Wolbachia per cell robust z, rep 2 | Wolbachia per cell robust z, rep 3 | call |
| --- | --- | --- | --- | --- | --- |
| CG13560 | 1 | -0.0606 | 0.947 | -0.201 | inactive |
| CG13560 | 2 | 0.637 | -0.144 | -0.19 | inactive |
| Psf2 | 1 | 0.493 | -5.45 | 0.863 | inactive |
| yuri | 1 | -0.0209 | -6.54 | 0.863 | inactive |
| yuri | 2 | -0.579 | 1.13 | -0.0377 | inactive |
| yuri | 3 | 0.698 | -0.0246 | -11.3 | inactive |
| yuri | 4 | -0.00652 | 1.48 | -0.286 | inactive |
| mRpL2 | 1 | -0.562 | -0.19 | -4.98 | inactive |
| blw | 1 | 0.678 | 1.45 | -0.516 | inactive |
| CG15365 | 1 | 0.209 | -0.191 | -0.504 | inactive |
| scw | 1 | 0.774 | 0.485 | -0.0937 | inactive |
| scw | 2 | 0.0231 | -0.585 | -0.38 | inactive |
| CG30103 | 1 | 0.0847 | -0.766 | -2.47 | inactive |
| CG30103 | 2 | -7.64 | -7.6 | -5.17 | inactive |
| Mob2 | 1 | -1.3 | 0.981 | 0.571 | inactive |
| Mob2 | 2 | 0.56 | -0.0139 | -1.16 | inactive |
| Mob2 | 3 | 1.07 | -0.755 | 0.456 | inactive |
| Mob2 | 4 | -0.159 | -0.655 | -2.51 | inactive |
| Cyp310a1 | 1 | -0.0527 | 0.567 | -1.8 | inactive |
| Cyp310a1 | 2 | -1.06 | -3.89 | 0.124 | inactive |
| Helz | 1 | 0.281 | -3.13 | -0.383 | inactive |
| Helz | 2 | -0.251 | -1.33 | -0.579 | inactive |
| CG17672 | 1 | 2.32 | 2.7 | 1.13 | inactive |
| CG17672 | 2 | 0.459 | -0.811 | 0.221 | inactive |
| htt | 1 | -0.417 | -1.09 | 0.0646 | inactive |
| CG5402 | 1 | -1.45 | -1.27 | 0.401 | inactive |
| CG5402 | 2 | 1.01 | -0.639 | -0.648 | inactive |
| glu | 1 | 0.0877 | 1.3 | 0.495 | inactive |
| glu | 2 | 1.23 | 0.215 | 1.04 | inactive |
| CG7840 | 1 | 0.207 | 0.194 | -1.36 | inactive |
| Vha100-2 | 1 | 0.318 | -1.87 | -0.441 | inactive |
| Vha100-2 | 2 | -4.46 | -0.0937 | 0.405 | inactive |
| CG8677 + CG31626 | 1 | 0.544 | -7.51 | 0.741 | inactive |
| CG8677 + CG31626 | 2 | 0.819 | 0.846 | 0.934 | inactive |
| Kebab | 1 | 0.119 | -8.22 | -0.0457 | inactive |
| Kebab | 2 | -0.265 | -1.7 | -7.28 | active |
| CBP | 1 | -0.649 | 0.296 | 0.435 | inactive |
| Tdrd3 | 1 | 0.336 | 0.518 | 0.569 | inactive |
| Ephrin | 1 | -3.52 | 0.585 | 0.764 | inactive |
| L2HGDH | 1 | -0.393 | -1.16 | 0.335 | inactive |
| L2HGDH | 2 | 0.0192 | -0.537 | -0.895 | inactive |
| Obp8a | 1 | 0.331 | 0.408 | 0.177 | inactive |
| Obp8a | 2 | -0.0717 | -0.562 | -0.232 | inactive |
| CG5466 | 1 | -0.757 | 0.265 | 0.27 | inactive |
| CG5466 | 2 | -0.487 | 1.7 | 0.186 | inactive |
| CG34043 | 1 | 1.64 | -0.54 | 1.97 | inactive |
